Source: paper PMC5077133, “Towards Development of Small Molecule Lipid II Inhibitors as Novel Antibiotics” (PLoS ONE, 2016)

Test system: HeLa cells
Test: Cytotoxicity against mammalian cells (MTS assay)
Assay type: cell-based
Conditions: ratio of HeLa CC50 to S. aureus MIC
Description: The cytotoxicity concentration of antibacterial compounds that produces half maximal decrease in viability (CC50) against mammalian cells (HeLa, ATCC CCL-2.2) was determined as described. The effect of compounds on HeLa cell viability was assessed in triplicate by measuring the mitochondrial activity using MTS assays according to the manufacturer’s instructions (Cell Titer 96 proliferation assay, Promega). The cells were incubated for 72 hours in RPMI1640 medium containing the compounds at final concentrations ranging from 64 to 0.125 μg/ml. CC50 was determined using a standard curve of serially diluted untreated cells in each experiment.

Row | SMILES | CC50%/MIC (based on S. aureus)
1 | CCc1ccc(-c2cc(/C=C/c3cn(C)c4ccccc34)[o+]c(-c3ccc(CC)cc3)c2)cc1.F[B-](F)(F)F [6jc66-2] | 0.355
2 | C(=C\c1cc(-c2ccccc2)cc(-c2ccccc2)[o+]1)/c1cc2c3c(c1)CCCN3CCC2.F[B-](F)(F)F [6jc-58] | 0.56
3 | Cc1ccc(-c2cc(/C=C/c3c[nH]c4ccccc34)[o+]c(-c3ccc(C)c(C)c3)c2)cc1C.F[B-](F)(F)F [6jc-59-3] | 0.3375
4 | CN(C)c1ccc(/C=C/C=C/c2cc(-c3ccc(Br)cc3)cc(-c3ccc(Br)cc3)[o+]2)cc1.F[B-](F)(F)F [6jc48-2] | <0.945
5 | CN(C)c1ccc(/C=C/c2cc(-c3ccc(Br)cc3)cc(-c3ccc(Br)cc3)[o+]2)cc1 [6jc48-1] | 3.125
6 | Cc1ccc(-c2cc(/C=C/C=C/c3ccc(N(C)C)cc3)[o+]c(-c3ccc(C)cc3)c2)cc1.F[B-](F)(F)F [6jc51-2] | <.39
7 | Cc1ccc(-c2cc(/C=C/c3ccc(N(C)C)cc3)[o+]c(-c3ccc(C)c(C)c3)c2)cc1C.F[B-](F)(F)F [6jc-59-1] | 0.39
8 | Cc1ccc(-c2cc(/C=C/c3cc4c5c(c3)CCCN5CCC4)[o+]c(-c3ccc(C)c(C)c3)c2)cc1C.F[B-](F)(F)F [6jc-69-3] | 0.195
9 | Cc1ccc(-c2cc(/C=C/c3cn(C)c4ccccc34)[o+]c(-c3ccc(C)c(C)c3)c2)cc1C.F[B-](F)(F)F [6jc66-4] | 0.46
10 | Brc1ccc(-c2cc(/C=C/c3cc4c5c(c3)CCCN5CCC4)[o+]c(-c3ccc(Br)cc3)c2)cc1.F[B-](F)(F)F [6jc-69-5] | 0.06
11 | CCc1ccc(-c2cc(/C=C/c3cc4c5c(c3)CCCN5CCC4)[o+]c(-c3ccc(CC)cc3)c2)cc1.F[B-](F)(F)F [6jc-69-1] | 0.39
12 | CN(C)c1ccc(/C=C/C=C/c2cc(-c3ccccc3)cc(-c3ccccc3)[o+]2)cc1.F[B-](F)(F)F [6jc43-1] | 0.2325
13 | C(=C\c1c[nH]c2ccccc12)/c1cc(-c2ccccc2)cc(-c2ccccc2)[o+]1.F[B-](F)(F)F [Jc-49-1] | 0.275
14 | Cc1ccc(-c2cc(/C=C/c3cn(C)c4ccccc34)[o+]c(-c3ccc(C)cc3)c2)cc1.F[B-](F)(F)F [6jc65-2] | 0.47
15 | CCc1ccc(-c2cc(/C=C/c3ccc(N(C)C)cc3)[o+]c(-c3ccc(CC)cc3)c2)cc1.F[B-](F)(F)F [6jc64-1] | 0.195
16 | CN(C)c1ccc(/C=C/c2cc(-c3ccc(C(C)(C)C)cc3)cc(-c3ccc(C(C)(C)C)cc3)[o+]2)cc1.F[B-](F)(F)F [6jc-60-1] | 0.097
17 | Cn1cc(/C=C/c2cc(-c3ccccc3)cc(-c3ccccc3)[o+]2)c2ccccc21.F[B-](F)(F)F [6jc66-1] | 0.48
18 | Cc1ccc(-c2cc(/C=C/c3cc4c5c(c3)CCCN5CCC4)[o+]c(-c3ccc(C)cc3)c2)cc1.F[B-](F)(F)F [6jc65-1] | 0.276
19 | Cc1cc(/C=C/c2ccc(N(C)C)cc2)cc(C)[o+]1.F[B-](F)(F)F [6jc37] | 1.185
20 | CN(C)c1ccc(/C=C/c2cc(-c3ccccc3)cc(-c3ccccc3)[o+]2)cc1.F[B-](F)(F)F [6jc39] | 0.655
21 | Cc1ccc(-c2cc(/C=C/c3ccc(N(C)C)cc3)[o+]c(-c3ccc(C)cc3)c2)cc1.F[B-](F)(F)F [6jc51-1] | <.78125
22 | CN1/C(=C/C=C/c2cc(-c3ccccc3)cc(-c3ccccc3)[o+]2)C(C)(C)c2ccccc21 [BAS-00127538, (1-Methyl-2,4-diphenyl-6-((1E,3E)-3-(1,3,3-trimethylindolin-2-ylidene)prop-1-en-1-yl)pyryl-1-ium) tetrafluoroborate, reference compound] | 1.12
23 | Cn1cc(/C=C/c2cc(-c3ccc(C(C)(C)C)cc3)cc(-c3ccc(C(C)(C)C)cc3)[o+]2)c2ccccc21.F[B-](F)(F)F [6jc66-3] | 0.71
24 | Cc1ccc(-c2cc(/C=C/c3c[nH]c4ccccc34)[o+]c(-c3ccc(C)cc3)c2)cc1.F[B-](F)(F)F [6jc-53-2] | 0.56
25 | CCc1ccc(-c2cc(/C=C/C=C/c3ccc(N(C)C)cc3)[o+]c(-c3ccc(CC)cc3)c2)cc1.F[B-](F)(F)F [6jc64-2] | 0.097
26 | Clc1ccc(-c2cc(/C=C/c3cc4c5c(c3)CCCN5CCC4)[o+]c(-c3ccc(Cl)cc3)c2)cc1.F[B-](F)(F)F [6jc-69-4] | 0.38
27 | CCc1ccc(-c2cc(/C=C/c3c[nH]c4ccccc34)[o+]c(-c3ccc(CC)cc3)c2)cc1.F[B-](F)(F)F [6jc64-3] | 0.581
28 | CN(C)c1ccc(/C=C/c2cc(-c3ccc(Cl)cc3)cc(-c3ccc(Cl)cc3)[o+]2)cc1.F[B-](F)(F)F [6jc41-1] | >2
